The values below are quoted from earlier work in article PMC7854729 (Nature Communications, 2021).

The test system of this data set is SARS-CoV PLpro. To be noted: cited from earlier work.

Structures are written as SMILES.

The term IC50 denotes the concentration needed to halve the response being measured. Consider `Cc1ccc(N)cc1C(=O)N[C@H](C)c1cccc2ccccc12` [Compound 1, 5-amino-2-methyl-N-[(1R)-1-naphthalen-1-ylethyl]benzamide], for which the IC50 was 600 nM.
